Compound potency records, mixed from different reports. Data source: NIAID ChemDB in PubChem.

Shared fields: enzyme or target tests; species: Hepatitis C virus; protein: Nonstructural protein 3 protease

Lines come from different laboratories, so protocols vary.

compound	endpoint	strain or isolate	method	result
CCCC(NC(=O)[C@@H]1[C@H]2CCC[C@H]2CN1C(=O)[C@@H](NC(=O)[C@@H](NC(=O)c1cnccn1)C(C)(C)C)C(C)(C)C)C(=O)C(=O)NC1CC1	Ki			0.59 µM
O=C(O)C1=CC(OC(=O)c2cc(O)c(O)c(O)c2)C(O)[C@H](O)C1	IC50		fluorescence	214.7 µM
CC[C@@H]1C(=O)N(S(C)(=O)=O)[C@H]2CCN(C(=O)[C@@H](NC(=O)OC(C)(C)C)C(C)C)[C@H]12	IC50			30 µM
CC(C)[C@H](NC(=O)OC(C)(C)C)C(=O)N1CC[C@H]2[C@H]1C1(CCCC1)C(=O)N2C(=O)C1CC1	IC50			2.5 µM
CC[C@@H]1C[C@]1(NC(=O)[C@@H]1C[C@@H](Oc2cc(-c3csc(NC(C)C)n3)nc3c(Cl)c(OCCN4CCOCC4)ccc23)CN1C(=O)[C@@H](NC(=O)OC1C[C@@H]2C[C@@H]2C1)C(C)(C)C)C(=O)O	Ki	Con1 (gt 1b)	fluorescence	0.00041 µM
CC(C)[C@H](NC(=O)OC(C)(C)C)C(=O)N1CC[C@H]2[C@H]1C(C)(C)C(=O)N2C(=O)C1CC1	IC50			3 µM
CC(=O)N1C(=S)NC2=C(CCc3ccccc32)C1c1cccs1	IC50	NS3-4A	PCR	0.288 µM
O=c1oc2c(O)c(O)cc3c(=O)oc4c(O)c(O)cc1c4c23	IC50		fluorescence	56.3 µM
CC[C@@H]1C(=O)N(C(=O)C2CC2)[C@H]2CCN(C(=O)[C@@H](NC(=O)OC(C)(C)C)C(C)C)[C@H]12	IC50			8.9 µM
O=C(O)CSc1nc(-c2cccs2)c2c(n1)-c1ccccc1CC2	IC50	NS3-4A	PCR	0.188 µM
O=c1c(O[C@@H]2O[C@H](CO)[C@@H](O)[C@H](O)[C@H]2O)c(-c2ccc(O)c(O)c2)oc2cc(O)cc(O)c12	IC50			<100 µM
CCC[C@H](NC(=O)[C@@H]1[C@H]2CCC[C@H]2CN1C(=O)[C@@H](NC(=O)[C@@H](NC(=O)c1cnccn1)C1CCCCC1)C(C)(C)C)C(=O)C(=O)N[C@@H](C)Cc1ccc(C)cc1	Ki			0.136 µM
CCCC(NC(=O)[C@@H]1C2CCC(C2)N1C(=O)[C@@H](NC(=O)OC(C)(C)C)C1CCCCC1)C(=O)C(=O)NCC(=O)N[C@H](C(=O)N(C)C)c1ccccc1	Ki			0.09 µM
O=C(O)CC(C(=O)O)C1c2c(cc(O)c(O)c2O)C(=O)CC1C(=O)O[C@H]1[C@H](O)[C@@H](O)[C@H](OC(=O)c2cc(O)c(O)c(O)c2)O[C@@H]1CO	IC50		fluorescence	67.2 µM
CCC[C@H](NC(=O)[C@@H]1C2CCCC2CN1C(=O)[C@@H](NC(=O)[C@@H](NC(=O)c1cnccn1)C(C)CC)C(C)(C)C)C(=O)C(=O)NC1CC1	Ki			0.18 µM
O=C(O)C[C@H](C(=O)O)[C@H]1c2c(cc(O)c(O)c2O)C(=O)O[C@@H]1C(=O)O	IC50		fluorescence	182.6 µM
CCCCCCCCCCCCCC1=C(O)C(=O)C=C(OC)C1=O	IC50			46 µM
CC[C@@H]1C(=O)N(C(=O)C2CC2)[C@H]2CCN(C(=O)[C@@H](NC(=O)OC(C)(C)C)C(C)C)[C@H]12	IC50			8.9 µM
CCC[C@H](NC(=O)[C@@H]1[C@H]2CCC[C@H]2CN1C(=O)[C@@H](NC(=O)[C@@H](NC(=O)c1cnccn1)C1CCCC1)C(C)(C)C)C(=O)C(=O)NC1CC1	Ki			0.04 µM
O=c1c(O[C@@H]2OC[C@H](O)[C@H](O)[C@H]2O)c(-c2ccc(O)c(O)c2)oc2cc(O)cc(O)c12	IC50			100 µM
CCC[C@H](NC(=O)[C@@H]1C2CCCC2CN1C(=O)[C@@H](NC(=O)[C@@H](NC(=O)c1cnccn1)C1CCCCC1)C(C)(C)C)C(=O)C(=O)N[C@@H](C)C(C)C	Ki			0.312 µM
CCCC(NC(=O)[C@@H]1C2CCCC2CN1C(=O)[C@@H](NC(=O)[C@@H](NC(=O)c1cnccn1)C1CCCCC1)C(C)(C)C)C(=O)C(=O)N[C@@H](C)CC	Ki			0.084 µM
CC(C)[C@H](NC(=O)OC(C)(C)C)C(=O)N1CC[C@H]2[C@H]1C(C)(C)C(=O)N2C(=O)C1CC1	IC50			3 µM
O=C(CSc1nc(-c2cccs2)c2c(n1)-c1ccccc1CC2)NN1C(=O)c2ccccc2C1=O	IC90	NS3-4A	PCR	0.301 µM

The last 2 rows once more:

{"compound": "CC(C)[C@H](NC(=O)OC(C)(C)C)C(=O)N1CC[C@H]2[C@H]1C(C)(C)C(=O)N2C(=O)C1CC1", "endpoint": "IC50", "result": "3 µM"}
{"compound": "O=C(CSc1nc(-c2cccs2)c2c(n1)-c1ccccc1CC2)NN1C(=O)c2ccccc2C1=O", "endpoint": "IC90", "strain or isolate": "NS3-4A", "method": "PCR", "result": "0.301 µM"}

ICn: concentration for n% inhibition. An empty or dashed field is not shown.